Values from PubChem BioAssay AID1259414 (Drosophila RNAi Screening Center, 2018)
The deposit covers about 24,000 reagents; shown is a random part of those that have a named target and a result. Of all reagents, about 1,210 (5%) are marked active. 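Inactive calls also include excluded dsRNAs with several or no targets, genes unexpressed in JW18, and well A1, regardless of score.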 The numbers tell different reagents against one gene apart. A plus sign joins genes that one reagent is predicted to hit.

Assay: 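Fly genes that alter Wolbachia amount inside host cells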 (primary screen)
Cell system: Drosophila JW18 cells infected with Wolbachia
Knock-down reagent: long dsRNA against Drosophila genes, 0.25 µg dsRNA per well of a 384-well plate
Time to read-out: 5 days
Treatment: cells persistently infected with Wolbachia before knock-down; no added drug
Measured: 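Automated imaging of bacterial rRNA staining divided by host cell count, reported as plate-normalised robust z-score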
Direction: Wolbachia per cell robust z: higher = more Wolbachia per host cell than the plate typical
Rule for the call: 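Active if absolute robust z reaches 1.5 in two or more of three replicates, leaving out multi- or no-target dsRNAs, genes unexpressed in JW18 and A1 wells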

predicted target	dsRNA no.	Wolbachia per cell robust z, rep 1	Wolbachia per cell robust z, rep 2	Wolbachia per cell robust z, rep 3	Outcome
CG42663	1	0.203	-0.672	-0.121	inactive
CG42663	2	-0.879	-0.176	0.206	inactive
CG42663	3	0.974	1.21	-1.08	inactive
msps	1	2.18	0.469	0.319	inactive
WRNexo	1	-0.714	0.142	0.871	inactive
CG13000	1	0.548	-0.215	-0.81	inactive
CG13000	2	-0.648	-0.329	-0.75	inactive
knon	1	-2.07	0.353	0.482	inactive
CG15203	1	0.108	-1.92	0.601	inactive
Vps8	1	0.432	-0.0297	0.231	inactive
Tpc2 + CG9083	1	0	1.95	2.25	inactive
SF2	1	0.537	1.09	1.6	inactive
TkR99D	1	0.711	-0.0129	0.439	inactive
CG15625	1	-3.54	-6.62	-3.12	inactive
CG15625	2	-1.61	-2.14	-0.617	inactive
CG15625	3	0.0669	-0.0496	-8.72	inactive
SdhC	1	-3.49	-0.0134	0.408	inactive
Smyd5	1	0.489	0.191	0.0411	inactive
pps	1	-0.675	-1.22	-1.12	inactive
pps	2	1.92	-0.497	1.05	inactive
pps	3	-0.654	1.17	0.105	inactive
CG13623	1	-0.372	-2.56	-2.94	active
Svip	1	0.757	0.684	0.295	inactive
Svip	2	0.792	1.44	0.663	inactive
TTLL5	1	-0.000478	-0.609	-0.49	inactive
CG3104	1	-0.947	-0.84	-1.49	inactive
sbr	1	0.562	-2.49	-0.0165	inactive
sbr	2	-0.0087	0.472	0.616	inactive
sbr	3	0.369	-1.82	0.335	inactive
CG12883	1	-0.136	0.839	-0.552	inactive
CG12883	2	0.291	-0.424	0.0212	inactive

No new results follow: an excerpt of the list.
predicted target	dsRNA no.	Wolbachia per cell robust z, rep 1	Wolbachia per cell robust z, rep 2	Wolbachia per cell robust z, rep 3	Outcome
pps	1	-0.675	-1.22	-1.12	inactive
pps	2	1.92	-0.497	1.05	inactive
pps	3	-0.654	1.17	0.105	inactive
CG13623	1	-0.372	-2.56	-2.94	active
Svip	1	0.757	0.684	0.295	inactive
Svip	2	0.792	1.44	0.663	inactive
TTLL5	1	-0.000478	-0.609	-0.49	inactive

The results go on.
predicted target	dsRNA no.	Wolbachia per cell robust z, rep 1	Wolbachia per cell robust z, rep 2	Wolbachia per cell robust z, rep 3	Outcome
CG3430	1	0.15	1.38	-11.6	inactive
mIF3	1	-1.29	0.535	-0.412	inactive
fipi	1	0.341	-1.05	-0.269	inactive
fipi	2	0.683	2.26	1.92	inactive
E(spl)mdelta-HLH	1	-0.264	0.0745	0.563	inactive
E(spl)mdelta-HLH	2	-0.176	-0.334	-0.67	inactive
CG6333	1	0.152	0.584	0.371	inactive
spri	1	-1.11	0.306	0.257	inactive
spri	2	-4.48	-0.968	-1.49	inactive
spri	3	0.618	0.128	-3.37	inactive
spri	4	-0.638	0.975	0.954	inactive
spri	5	-0.364	0.513	-0.0289	inactive
spri	6	0.423	0.862	0.181	inactive
Obsc	1	-2.28	-1.54	-0.0159	inactive
Obsc	2	-0.0981	-0.56	0.342	inactive
Obsc	3	-0.307	0.339	0.0585	inactive
Obsc	4	-5.28	-0.294	0.346	inactive
Obsc	5	-1.12	0.00811	-0.0095	inactive
ND-MWFE	1	-0.902	-5.06	-2.48	active
Sac1	1	0.636	-0.081	-0.281	inactive
Sac1	2	0.0666	0.984	0.107	inactive
CG8010	1	-1.41	0.258	0.669	inactive
CG8010	2	-2.4	-0.277	-0.35	inactive
Trp1	1	-0.195	0.0835	-0.254	inactive
Trp1	2	-0.317	-1.33	-1.43	inactive
Pgam5	1	-0.176	-0.105	0.209	inactive
Pgam5	2	-0.727	0.475	0.0253	inactive
CG15306	1	0.539	-4.96	0.409	inactive
CG15306	2	-1.04	-1.57	-0.185	inactive
CG15306	3	0.216	0.936	-0.142	inactive
CG6462	1	-0.81	0.0489	0.417	inactive
CG6462	2	-0.605	1.02	-1.82	inactive
Rab9Db + Rab9Fa	1	-0.562	0.749	0.0834	inactive
CG14007	1	0.995	-4.4	0.823	inactive
CG34198	1	0.0669	-1.65	1.65	inactive
Ccp84Ae	1	-0.441	0.739	-0.958	inactive
Ccp84Ae	2	0.318	-9.5	-0.798	inactive
Ccp84Ae	3	0.971	0.654	-0.0893	inactive
